Data as given in PubChem BioAssay AID1259414 (Drosophila RNAi Screening Center, 2018)
The deposit covers about 24,000 reagents; shown is a random part of those with a known target gene and a result. Over the whole deposit, about 1,210 (5%) were called active. 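Inactive calls also include excluded dsRNAs with several or no targets, genes unexpressed in JW18, and well A1, regardless of score.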 Names joined by + are all predicted targets of the reagent.

- Screen: 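Fly genes that alter Wolbachia amount inside host cells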 (primary screen)
- Cell system: Drosophila JW18 cells infected with Wolbachia
- Knock-down reagent: long dsRNA against Drosophila genes, 0.25 µg dsRNA per well of a 384-well plate
- Time to read-out: 5 days
- Conditions: cells persistently infected with Wolbachia before knock-down; no added drug
- Measured: 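Imaged fluorescence in situ signal for Wolbachia 23S rRNA per DAPI-counted host cell, given as a robust z-score within each plate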
- Reading the numbers: Wolbachia per cell robust z: higher = more Wolbachia per host cell than the plate typical
- Rule for the call: 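Active if absolute robust z reaches 1.5 in two or more of three replicates, leaving out multi- or no-target dsRNAs, genes unexpressed in JW18 and A1 wells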

Gene | dsRNA | Wolbachia per cell robust z, rep 1 | Wolbachia per cell robust z, rep 2 | Wolbachia per cell robust z, rep 3 | call
CG31626 + CG8677 | DRSC25078 | -0.238 | -0.309 | -0.207 | inactive
her (hermaphrodite) | DRSC03543 | -7.24 | -0.227 | -3.59 | active
CG6299 + CG6294 | DRSC19980 | -2.86 | -0.0037 | 0.846 | inactive
CG6299 + CG6294 | DRSC27443 | 0.437 | -4.87 | 0.907 | inactive
Slh (SLY-1 homologous) | DRSC00407 | -3.25 | -5.9 | 0.599 | active
Slh (SLY-1 homologous) | DRSC00789 | 1.34 | 0.731 | 1.19 | inactive
Slh (SLY-1 homologous) | DRSC27448 | -3.98 | 0.703 | -0.0033 | inactive
SC35 (SR family splicing factor SC35) | DRSC03425 | 0.16 | -0.514 | -0.275 | inactive
SC35 (SR family splicing factor SC35) | DRSC25427 | -0.782 | 0.437 | 0.546 | inactive
SC35 (SR family splicing factor SC35) | DRSC27081 | -0.0238 | -0.797 | 0.326 | inactive
SC35 (SR family splicing factor SC35) | DRSC39081 | 0.401 | -1.26 | 2.21 | inactive
CG31226 | DRSC21724 | -2.07 | 0.752 | -1.15 | inactive
CG43339 | DRSC02466 | -0.333 | 0.183 | -0.381 | inactive
CG43339 | DRSC41462 | -0.1 | -0.583 | -0.155 | inactive
CG14453 | DRSC11710 | 0.781 | 0.131 | -0.838 | inactive
CG14453 | DRSC23780 | -0.0487 | 1.23 | 0.000399 | inactive
CG7191 | DRSC03022 | -0.868 | 0.901 | -0.614 | inactive
CG7191 | DRSC26094 | -1.07 | 0.0501 | -2.43 | inactive
Non3 (Novel nucleolar protein 3) | DRSC16359 | -1.16 | 0.0353 | -0.492 | inactive
CG13408 | DRSC13534 | 0.397 | 1.33 | 0.536 | inactive
CG13408 | DRSC14584 | 0.272 | -0.457 | 0.249 | inactive
Acp53C14c (Accessory gland protein 53C14c) | DRSC38868 | -0.593 | 0.391 | -0.39 | inactive
CG3191 | DRSC18530 | 0.782 | 0.081 | 0.793 | inactive
CG3191 | DRSC29390 | 0.521 | -0.977 | -0.985 | inactive
CG42716 | DRSC41363 | -2.02 | -0.162 | -0.851 | inactive
Gr21a (Gustatory receptor 21a) | DRSC00366 | 1.21 | -2.9 | 0.593 | inactive
Gr21a (Gustatory receptor 21a) | DRSC28583 | -0.0695 | 0.674 | -0.0976 | inactive
CG42558 + CG42557 | DRSC13963 | -0.0239 | 0.214 | 0.408 | inactive
CG42558 + CG42557 | DRSC16329 | 0.149 | 0.193 | 0.586 | inactive

3 entries from above, ordered by “Wolbachia per cell robust z, rep 2”, highest first.
Gene | dsRNA | Wolbachia per cell robust z, rep 1 | Wolbachia per cell robust z, rep 2 | Wolbachia per cell robust z, rep 3 | call
CG6299 + CG6294 | DRSC19980 | -2.86 | -0.0037 | 0.846 | inactive
CG6299 + CG6294 | DRSC27443 | 0.437 | -4.87 | 0.907 | inactive
Slh (SLY-1 homologous) | DRSC00407 | -3.25 | -5.9 | 0.599 | active
